Test results: patent publication US8487103B2 (Roche Palo Alto LLC, priority 2009, dated 2013)

Target: HCV polymerase (NS5B570n-Con1) (Hepatitis C virus genotype 1b, UniProt Q9WMX2)
Assay: HCV NS5B RNA Polymerase Activity
Format: biochemical, HCV Con1 strain
Conditions: read-out: IC50 HCV Polymerase Activity; NS5B570n-Con1, cIRES RNA template, tritiated UTP incorporation
Method: The enzymatic activity of HCV polymerase (NS5B570n-Con1) was measured as the incorporation of radiolabeled nucleotide monophosphates into acid insoluble RNA products. Unincorporated radiolabeled substrate was removed by filtration and scintillant was added to the washed and dried filter plate containing radiolabeled RNA product. The amount of RNA product generated by NS5B570-Con1 at the end of the reaction was directly proportional to the amount of light emitted by the scintillant.
The N-terminal 6-histidine tagged HCV polymerase, derived from HCV Con1 strain, genotype 1b (NS5B570n-Con1) contains a 21 amino acid deletion at the C-terminus relative to the full-length HCV polymerase and was purified from E. coli strain BL21(DE) pLysS. The construct, containing the coding sequence of HCV NS5B Con1 (GenBank accession number AJ242654) was inserted into the plasmid construct pET 17b, downstream of a T7 promoter expression cassette and transformed into E. coli. […]
The amount of light emitted from the scintillant was converted to counts per minute (CPM) on a Topcount® plate reader (Perkin-Elmer, Energy Range: Low, Efficiency Mode Normal, Count Time: 1 min, Background Subtract: none, Cross talk reduction: Off).
Data was analyzed in Excel® (Microsoft) and ActivityBase® (Idbs®). […] All data was expressed as a percentage of the positive control. […]

Q: How did the IC50 turn out when COc1c(C(C)(C)C)cc(-c2cn(C)c(=O)[nH]c2=O)c2ncc(N3CC[C@H](CNS(C)(=O)=O)C3)cc12 was run?
A: 6.6 nM
